Assay results as given in US20130202593A1 (MEDICAL RESEARCH COUNCIL, published 2013).

Biological target: polyclonal antibody against adenovirus used in the neutralisation titration of FIG. 1B
Assay: cell-based or functional assay

B1: endogenous TRIM21 in human cells (HeLa) (receptor)
chain: MASAARLTMMWEEVTCPICLDPFVEPVSIECGHSFCQECISQVGKGGGSVCPVCRQRFLLKNLRPNRQLANMVNNLKEISQEAREGTQGERCAVHGERLHLFCEKDGKALCWVCAQSRKHRDHAMVPLEEAAQEYQEKLQVALGELRRKQELAEKLEVEIAIKRADWKKTVETQKSRIHAEFVQQKNFLVEEEQRQLQELEKDEREQLRILGEKEAKLAQQSQALQELISELDRRCHSSALELLQEVIIVLERSESWNLKDLDITSPELRSVCHVPGLKKMLRTCAVHITLDPDTANPWLILSEDRRQVRLGDTQQSIPGNEERFDSYPMVLGAQHFHSGKHYWEVDVTGKEAWDLGVCRDSVRRKGHFLLSSKSGFWTIWLWNKQKYEAGTYPQTPLHLQVPPCQVGIFLDYEAGMVSFYNITDHGSLIYSFSECAFTGPLRPFFSPGFNDGGKNTAPLTLCPLNIGSQGSTDY
- adenovirus infection (percentage of GFP positive cells), fold decrease due to antibody: > 50 fold
- adenovirus infection, fold decrease due to antibody in cells depleted of TRIM21: ~3 fold
- adenovirus infection, fold decrease due to antibody in cells pre-incubated with IFNα: > 230 fold
